Measurements: patent US20250034557
Construct, isoform or probe ends are uncertain for at least one entry. Protein sequences can lack the tags named with them.

Target: T1, Tn5 transposase (UniProt Q46731)
T1 sequence (looked up, limits assumed): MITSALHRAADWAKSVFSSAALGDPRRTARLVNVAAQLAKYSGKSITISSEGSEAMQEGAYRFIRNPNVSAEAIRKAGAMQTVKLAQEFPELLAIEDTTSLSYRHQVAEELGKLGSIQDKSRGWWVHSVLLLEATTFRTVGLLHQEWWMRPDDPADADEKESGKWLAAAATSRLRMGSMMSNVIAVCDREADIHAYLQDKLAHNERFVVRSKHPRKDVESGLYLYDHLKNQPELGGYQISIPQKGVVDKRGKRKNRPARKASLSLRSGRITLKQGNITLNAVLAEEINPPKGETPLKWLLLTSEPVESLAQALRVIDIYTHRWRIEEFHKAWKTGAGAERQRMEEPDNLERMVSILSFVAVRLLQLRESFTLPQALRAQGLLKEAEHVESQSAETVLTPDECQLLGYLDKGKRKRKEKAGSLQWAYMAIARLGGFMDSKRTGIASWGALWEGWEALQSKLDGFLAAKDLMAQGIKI
Experiment: activity assay
Conditions: 5'-phosphate and 3' inverted dT on ME' strand; pUC19 tagmentation with sequenced library; pooled result over i7 adapters; 2.5 mM MgCl2, TAPS pH 8.5, 55 C; purified recombinant protein

## CAAGCAGAAGACGGCATACGAGATGAGTTAGTTGGTCTCGTGGGCTCGGAGATGTGTATAAGAGACAG / CTGTCTCTTATACACATCT [i7 adapter / ME']
  activity on this sequence: active
